Assay results from patent US11571416B2, “Amodiaquine analogs and methods of uses thereof” (priority 2017, dated 2023).
Which two values form the index is not stated here.

Tested on: EBOV-GFP (recombinant Ebolavirus encoding a GFP reporter gene)
Assay type: cell-based

Question: How did the Selectivity index turn out when `CCN(CC)Cc1cc(Nc2ccnc3cc(Cl)ccc23)ccc1O` [Amodiaquine] was run?
Answer: Its Selectivity index is 37.

Question: And the “Selectivity index (SI)” value?
Answer: The value was 37.
